Literature values as cited in publication PMC11053489 (Viruses, 2024).

System: 3CLpro mutations E166V and S144E
Details: cited from earlier work

In the case of CC(C)(C)[C@H](NC(=O)C(F)(F)F)C(=O)N1C[C@H]2[C@@H]([C@H]1C(=O)N[C@H](C#N)C[C@@H]1CCNC1=O)C2(C)C [Nirmatrelvir], the “reduction of inhibitory activity by 3CLpro mutations” value is given as over 100 fold.
